From US9951097B2, “Antibacterial compounds targeting isoprenoid biosynthesis” (priority 2012, dated 2018)
Like-named read-outs stand apart in the source and are kept apart here.

The chains behind the UniProt entries cited, without tags or fusion partners.
UniProt P60477, whole entry: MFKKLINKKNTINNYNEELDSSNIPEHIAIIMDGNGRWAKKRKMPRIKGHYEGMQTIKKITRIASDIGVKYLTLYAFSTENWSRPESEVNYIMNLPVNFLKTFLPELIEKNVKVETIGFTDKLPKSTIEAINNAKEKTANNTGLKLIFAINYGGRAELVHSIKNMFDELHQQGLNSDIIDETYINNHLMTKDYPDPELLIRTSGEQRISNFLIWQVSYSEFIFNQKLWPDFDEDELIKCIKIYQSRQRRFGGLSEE
UniProt P60472, whole entry: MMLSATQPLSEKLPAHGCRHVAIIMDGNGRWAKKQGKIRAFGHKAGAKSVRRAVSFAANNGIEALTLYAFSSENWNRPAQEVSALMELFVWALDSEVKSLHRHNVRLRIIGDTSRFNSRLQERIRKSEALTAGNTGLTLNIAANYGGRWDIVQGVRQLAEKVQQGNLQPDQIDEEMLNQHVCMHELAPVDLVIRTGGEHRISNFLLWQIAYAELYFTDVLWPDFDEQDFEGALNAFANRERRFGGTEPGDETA

Legend:
E. coli = E. coli cell growth inhibition; assay type: cell-based
S. aureus UPPS = S. aureus UPPS (Staphylococcus aureus, UniProt P60477); conditions: read-out: S. aureus UPPS IC50
[1] = test system: S. aureus (USA300 strain); experiment: S. aureus cell growth inhibition; assay type: cell-based; conditions: USA300, MRSA strain
[2] = test system: S. aureus (USA300 strain); conditions: previous work (Zhang et al. 2012); cited from earlier work
Bacillus anthracis = conditions: previous work (Zhang et al. 2012); cited from earlier work
Listeria monocytogenes = conditions: previous work (Zhang et al. 2012); cited from earlier work
Enterococcus faecium = conditions: previous work (Zhang et al. 2012); cited from earlier work
Streptococcus pyogenes = conditions: previous work (Zhang et al. 2012); cited from earlier work
E. coli UPPS = E. coli UPPS (Escherichia coli, UniProt P60472); experiment: E. coli UPPS inhibition assay; assay type: biochemical; conditions: read-out: E. coli UPPS IC50
UPPS = UPPS inhibition, enzyme species not given; assay type: biochemical; conditions: read-out: UPPS IC50

Compound | E. coli MIC90 (E. coli) [µg/mL] | IC50 (S. aureus UPPS) [nM] | S. aureus MIC90 [1] [µg/mL] | S. aureus MIC90 [2] [µg/mL] | Bacillus anthracis MIC90 (Bacillus anthracis) [µg/mL] | Listeria monocytogenes MIC90 (Listeria monocytogenes) [µg/mL] | Enterococcus faecium MIC90 (Enterococcus faecium) [µg/mL] | Streptococcus pyogenes MIC90 (Streptococcus pyogenes) [µg/mL] | IC50 (E. coli UPPS) [nM] | IC50 (UPPS) [nM]
O=C(Nc1cccc(Oc2ccc(C(=O)O)c(C(=O)O)c2)c1)c1ccc(-c2ccccc2)cc1 | 16 | 6900 | – | – | – | – | – | – | – | –
CCCCCCCCOc1ccc(C(=O)C=C(O)C(=O)O)cc1 | >32 | 2000 | 0.25 | 0.25 to 0.5 | 0.5 | 4 | 4 | 1 | – | –
Cc1ccc(Oc2cccc(NC(=O)c3ccccc3C(=O)O)c2)cc1C | >32 | 170000 | – | – | – | – | – | – | – | –
O=C(Nc1ccc(Br)cc1C(=O)O)c1ccc(S(=O)(=O)N2CCc3cc(Cl)ccc32)cc1 | >32 | 1600 | 1 | – | – | – | – | – | 1400 | 1000 to 2000
Cc1ccc(Oc2cccc(NC(=O)c3cc([N+](=O)[O-])ccc3C(=O)O)c2)cc1C | >32 | 72000 | – | – | – | – | – | – | – | –
CCCCCCCCCCOc1cccc(C(=O)C=C(O)C(=O)O)c1 | >32 | 730 | 0.5 | – | – | – | – | – | – | –
